Pooled drug test results. Numbers come from NIAID ChemDB, via PubChem.

All rows: enzyme or target tests; agent: HIV-1; protein: Protease; endpoint: Ki

Blank or dashed fields: not listed here. Rows are shuffled and stem from different studies.

compound | strain or isolate | changes | method | value
O=c1oc(-c2ccccc2)cc(O)c1Sc1ccccc1 | - | - | - | ~1 µM
O=C1CC(O)(Cc2ccccc2)C(O)C(O)(Cc2ccccc2)C1 | - | - | - | <25 µM
CC(C)C[C@H](NC(=O)[C@@H](NC(=O)CCCCCCCCCCCCCCC(=O)N[C@@H](CC(N)=O)C(=O)N[C@@H](Cc1ccccc1)C(=O)O)C(C)O)C(=O)N[C@@H](Cc1ccccc1)C(N)=O | - | - | HPLC | 3 µM
O=C1N(Cc2ccc3ccccc3c2)[C@H](Cc2ccccc2)[C@H](O)[C@@H](O)[C@@H](Cc2ccccc2)N1Cc1ccc2ccccc2c1 | - | - | - | 0.002 µM
CCCCNC(=O)[C@H](C)C[C@H](O)[C@H](CC1CCCCC1)NC(=O)[C@@H](NC(=O)[C@@H](NC(=O)OC(C)(C)C)[C@@H](C)O)[C@@H](C)CC | - | - | - | 0.019 µM
CN1[C@H](COc2ccccc2)[C@H](O)[C@@H](O)[C@@H](COc2ccccc2)N(C)S1(=O)=O | - | PR-G48V L90M | - | 3.5 µM
CC(C)[C@H](NC(=O)OCc1ccccc1)C(=O)N[C@@H](Cc1ccccc1)[C@H](O)[C@@H](CO)[C@H](Cc1ccccc1)NC(=O)OC(C)(C)C | - | - | - | 0.0004 µM
CCCCNC(=O)[C@H](C)C[C@H](O)[C@H](CC1CCCCC1)NC(=O)[C@@H](NC(=O)[C@H](CCCN=C(N)N)NC(=O)OC(C)(C)C)C(C)C | - | - | - | 0.075 µM
COC(=O)N[C@H](C(=O)N[C@@H](Cc1ccccc1)[C@@H](O)CN(Cc1ccc(-c2ccccn2)cc1)NC(=O)[C@@H](NC(=O)OC)C(C)(C)C)C(C)(C)C | WT | - | FRET | 0.000046 µM
CC(C)[C@H](NC(=O)OCc1ccccc1)C(=O)N[C@@H](Cc1ccccc1)[C@@H](O)[C@@H](NCc1ccccc1)C(=O)N[C@H](C(=O)NCc1nc2ccccc2[nH]1)C(C)C | - | - | substrate cleavage | 0.0034 µM
O=C1N[C@H](Cc2ccccc2)[C@H](O)[C@@H](O)[C@@H](Cc2ccccc2)N1 | - | - | - | 3 µM
CCCCNC(=O)[C@H](C)C[C@H](O)[C@H](CC1CCCCC1)NC(=O)[C@@H](NC(=O)[C@H](CCCN)NC(=O)OC(C)(C)C)C(C)C | - | - | - | 0.011 µM
C=CCN1C(=O)N(CC=C)[C@H](Cc2ccccc2)[C@H](O)[C@@H](O)[C@H]1Cc1ccccc1 | - | - | - | 0.003 µM
O=C(N[C@H]1c2ccccc2C[C@H]1O)[C@H](Cc1ccccc1)C[C@H](O)CN1C(=O)[C@@H](Cc2ccccc2)C[C@@H]1Cc1ccccc1 | - | - | - | 0.000067 µM
CCC(C1=C(O)CC(CC(C)C)(CC(C)C)OC1=O)c1cccc(NS(=O)(=O)c2ccc(C#N)cn2)c1 | - | - | - | 0.00005 µM
CCCCNC(=O)[C@H](C)C[C@H](O)[C@H](CC1CCCCC1)NC(=O)[C@@H](NC(=O)[C@H](CCC(N)=O)NC(=O)OC(C)(C)C)C(C)C | - | - | - | 0.056 µM
COC(=O)[C@H]([C@@H](O)[C@H](Cc1ccccc1)NC(=O)[C@@H](NC(=O)OCc1ccccc1)C(C)C)[C@H](Cc1ccccc1)NC(=O)OC(C)(C)C | - | - | - | 0.112 µM
CCC(C1=C(O)CC(CCC2CC2)(CCC2CC2)OC1=O)c1cccc(NS(=O)(=O)c2ccc(C#N)cn2)c1 | - | - | - | 0.00001 µM
CNC(=O)[C@@H](NC(=O)[C@H](OCc1ccccc1)[C@H](O)[C@@H](O)[C@@H](OCc1ccccc1)C(=O)N[C@H]1c2ccccc2C[C@H]1O)C(C)C | - | PR-I84V | - | 0.00034 µM
O=C1C(=O)N(Cc2ccccc2)C(Sc2ccccc2)C(O)C(Sc2ccccc2)N1Cc1ccccc1 | - | - | - | 0.5 µM
COc1ccc(C[C@H](NC(=O)c2cccc(O)c2C)[C@H](O)C(=O)N2CSC(C)(C)[C@H]2C(=O)NCc2ccccc2C)cc1 | - | - | HPLC | 0.000031 µM
CC(C)[C@H](NC(=O)N(C)Cc1ccccn1)C(=O)N[C@@H](Cc1ccccc1)[C@H](O)[C@H](O)[C@H](Cc1ccccc1)NC(=O)[C@@H](NC(=O)N(C)Cc1ccccn1)C(C)C | - | PR-M46I | fluorescence | 0.00012 µM
O=C(N[C@@H](Cc1ccccc1)[C@@H](O)C[C@H](Cc1ccccc1)NC(=O)[C@@H]1CN(c2cccc(C(F)(F)F)c2)C(=O)O1)OCc1cccnc1 | - | Q7K | substrate cleavage / FRET | 0.04109 µM
COc1cccc(C[C@H](NC(=O)c2cccc(O)c2C)[C@H](O)C(=O)N2CSC(C)(C)[C@H]2C(=O)NCc2c(C)cccc2C)c1 | - | - | HPLC | 0.000029 µM
CCC(c1ccccc1)c1c(O)cc(CCc2ccccc2)oc1=O | - | - | - | 0.5 µM
O=S1(=O)N(Cc2cccc(-c3cccs3)c2)[C@H](COc2ccccc2)[C@H](O)[C@@H](O)[C@@H](COc2ccccc2)N1Cc1cccc(-c2cccs2)c1 | - | PR-G48V L90M | - | 18 µM
COc1ccc(C[C@H](NC(=O)c2cccc(O)c2C)[C@H](O)C(=O)N2CSC(C)(C)[C@H]2C(=O)NCc2c(C)cccc2C)cc1 | - | - | HPLC | 0.000029 µM
Cc1cccc(C)c1OCC(=O)N[C@@H](Cc1ccccc1)[C@@H](O)C[C@H](Cc1ccccc1)NC(=O)[C@@H]1CN(c2ccccc2)C(=O)O1 | - | Q7K | substrate cleavage / FRET | 0.00728 µM
CCC(c1ccccc1)c1c(O)c2c(oc1=O)C(Cc1ccccc1)CCCCC2 | - | - | substrate cleavage | 0.266 µM
O=S1(=O)N(Cc2ccc(-c3cccs3)cc2)[C@H](COc2ccccc2)[C@H](O)[C@@H](O)[C@@H](COc2ccccc2)N1Cc1ccc(-c2cccs2)cc1 | - | PR-V82A | - | 7.7 µM
CC(C)C[C@@H](N)C(=O)N[C@H](CC(=O)O)C(=O)N[C@H](CCC(=O)O)C(=O)O | - | - | - | >2000 µM
O=C1N[C@H](Cc2ccccc2)[C@H](O)CN[C@H]1Cc1ccccc1 | - | - | HPLC | ≤0.01 µM
CC(C)(C)OC(=O)N[C@@H](COc1ccccc1)[C@H](O)[C@H](O)[C@H](COc1ccccc1)NC(=O)OC(C)(C)C | - | - | absorbance | 0.232 µM
CCCCNC(=O)[C@H](C)C[C@H](O)[C@H](CC1CCCCC1)NC(=O)[C@@H](NC(=O)[C@H](CCCN)NC(=O)OCc1ccccc1)C(C)C | - | - | - | 0.008 µM
CCC(C)[C@H](NC(=O)CCCCCCCCCCCCCCC(=O)Nc1ccccc1C(=O)N[C@@H](Cc1ccccc1)C(=O)O)C(=O)N[C@@H](Cc1ccccc1)C(N)=O | - | - | HPLC | 0.235 µM
CCCC1(CCc2ccccc2)CC(O)=C(C(c2cccc(NS(=O)(=O)c3cn(C)cn3)c2)C(C)(C)C)C(=O)O1 | - | - | - | 0.00005 µM
O=C(N[C@@H](Cc1ccccc1)[C@@H](O)CN(Cc1ccc(-c2ccccn2)cc1)NC(=O)[C@@H]1CN(c2ccccc2)C(=O)O1)[C@@H]1CN(c2ccccc2)C(=O)O1 | - | - | FRET | 0.3 µM
O=S1(=O)N(Cc2cccc(I)c2)[C@H](COc2ccccc2)[C@H](O)[C@@H](O)[C@@H](COc2ccccc2)N1Cc1cccc(I)c1 | - | PR-I84V | - | 17 µM
COC(=O)N[C@@H](Cc1c[nH]c2ccccc12)C(=O)NCCCC[C@@H](CO)N(CC(C)C)S(=O)(=O)c1ccc(N)cc1 | - | - | fluorescence | 0.0026 µM
COC(=O)N[C@H](C(=O)N[C@@H](Cc1ccccc1)[C@@H](O)CN(Cc1ccc(-c2ccccn2)cc1)NC(=O)[C@@H](NC(=O)OC)C(C)(C)C)C(C)(C)C | HXB2 | - | absorbance | 0.000044 µM
CCCC1(CCC)CC(O)=C(C(CC)c2cccc(NS(=O)(=O)c3cn(C)cn3)c2)C(=O)O1 | - | - | - | 0.000007 µM
Cc1cccc(C)c1CNC(=O)[C@H]1N(C(=O)[C@@H](O)[C@H](Cc2ccc3c(c2)OCO3)NC(=O)c2cccc(O)c2C)CSC1(C)C | - | - | HPLC | 0.000022 µM
CCCCNC(=O)[C@H](C)C[C@H](O)[C@H](CC1CCCCC1)NC(=O)[C@@H](NC(=O)[C@H](Cc1c[nH]c2ncccc12)NC(=O)OC(C)(C)C)C(C)C | - | - | - | 0.067 µM
CC1(C)S[C@H]([C@H](NC(=O)Cc2ccccc2)C(=O)NCc2ccccc2)N[C@H]1C(=O)N[C@H](Cc1ccccc1)[C@H](O)CC(=O)NCc1ccccc1 | RF | - | HPLC | 0.00025 µM
N#Cc1cccc(CN2CC[C@@H](O)[C@@H](Cc3ccccc3)N(Cc3cccc(C#N)c3)C2=O)c1 | - | - | - | 1.3 µM
CCCCNC(=O)[C@H](C)C[C@H](O)[C@H](CC1CCCCC1)NC(=O)[C@@H](NC(=O)CNC(=O)OC(C)(C)C)C(C)C | - | - | - | 0.172 µM
CC(C)(C)OC(=O)N[C@H](/C(O)=C(\C#N)c1ccc([N+](=O)[O-])cc1)c1ccccc1 | - | - | HPLC | 30 µM

A second listing of 4 rows from above:

| compound | strain or isolate | changes | method | value |
|---|---|---|---|---|
| CCCC1(CCC)CC(O)=C(C(CC)c2cccc(NS(=O)(=O)c3cn(C)cn3)c2)C(=O)O1 | - | - | - | 0.000007 µM |
| O=C1CC(O)(Cc2ccccc2)C(O)C(O)(Cc2ccccc2)C1 | - | - | - | <25 µM |
| CCC(c1ccccc1)c1c(O)c2c(oc1=O)C(Cc1ccccc1)CCCCC2 | - | - | substrate cleavage | 0.266 µM |
| CCCCNC(=O)[C@H](C)C[C@H](O)[C@H](CC1CCCCC1)NC(=O)[C@@H](NC(=O)CNC(=O)OC(C)(C)C)C(C)C | - | - | - | 0.172 µM |